Key:
[1] = target: FcγRIIb; test: SPR
[2] = target: FcγRI; test: SPR
[3] = target: FcγRIIIa (V158); test: SPR
[4] = target: FcγRIIa (R131); test: SPR
[5] = target: FcγRIIa (H131); test: SPR
[6] = target: FcγRIIIa (F158); test: SPR
[7] = target: human neonatal Fc receptor (FcRn) (human) (UniProt P55899); test: SPR; pH 6.0

Sequences of proteins named here, by UniProt entry; tags and fusion partners are left off. Residues count along the entry.
UniProt P55899, 24-297, chain 1 of 2: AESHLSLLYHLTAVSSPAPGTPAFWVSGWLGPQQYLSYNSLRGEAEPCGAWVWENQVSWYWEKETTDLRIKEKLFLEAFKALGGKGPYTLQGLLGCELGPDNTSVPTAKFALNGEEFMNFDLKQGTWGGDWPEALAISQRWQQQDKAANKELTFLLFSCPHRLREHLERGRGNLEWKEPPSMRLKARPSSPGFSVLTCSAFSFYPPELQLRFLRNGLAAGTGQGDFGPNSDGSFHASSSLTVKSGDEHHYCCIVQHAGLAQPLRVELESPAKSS

Kd [1]: 34 µM | Kd [2]: 0.0027 µM | Kd [3]: 0.843 µM | Kd [4]: 19.9 µM | Kd [5]: 12.4 µM | Kd [6]: 5.29 µM | Kd [7]: 0.0004 µM
Substance: amubarvimab (BRII-196)

Reference: publication PMC9518701
